A mixed list of measured activities; the numbers were collected in NIAID ChemDB.

Common to all: growth or infection tests; agent: Varicella zoster virus; read-out: EC50

Blank or dashed fields: not listed here. Lines come from different laboratories, so protocols vary. ECn is the concentration giving n% inhibition of infection, replication or growth.

SMILES	strain	read by	cell line	value
CCCCCCCCc1cc2cn([C@H]3C[C@H](F)[C@@H](CO)O3)c(=O)nc2o1	07 (TK-)			>20 µM
Cc1cccn2c(C3SCCS3)cnc12	YS		HEL	>1000 µM
O=C(O)CP(=O)(O)O	OKA (WILD TYPE)	cytopathic effect	HEL	50.7 µM
CC#Cc1cn([C@@H]2O[C@H](CO)[C@@H](O)[C@@H]2O)c(=O)[nH]c1=O	13 isolates	plaque count	HEL	0.46 µM
O=c1[nH]c(=O)n([C@H]2C[C@H](O)[C@@H](CO)O2)cc1I	7	plaque count	HEL	0.39 µg/mL
Nc1ncnc2c1ncn2C(CF)CCCO	07-01/TK-	cytopathic effect	HEL	>50 µg/mL
CCOC(=O)/C=C\C=C\[C@H]1O[C@@H](n2ccc(=O)[nH]c2=O)[C@H](O)[C@@H]1O	YS		HEL	10 µM
CC(O)c1cn([C@@H]2O[C@H](CO)[C@@H](O)[C@@H]2O)c(=S)[nH]c1=O	CAQU (TK+)	plaque count	MRC-5	>263.5 µM
Cc1c(Br)cc(Br)c2ncc(CSCc3cccs3)n12	OKA (TK+)	plaque count	HEL	>2 µg/mL
Nc1nc(F)nc2c1ncn2[C@@H]1C=C(CO)[C@@H](O)[C@H]1O	07/1 YS/R (TK-)	cytopathic effect	VERO	100 µg/mL
Nc1ncc2ncn(C[C@H]3CCC[C@H]3CO)c2n1	YS (TK+)	plaque count	HEL	>20 µg/mL
CCCCc1ccc(-c2cc3cn(C4CC[C@@H](CO)O4)c(=O)nc3o2)cc1	YS/R (TK-)	plaque count	HEL	>5 µM
Nc1nc2c(ncn2C[C@@H](CO)CCO)c(=O)[nH]1	9/84-A	cytopathic effect / ELISA	HEL	>100 µM
Nc1nc2c(ncn2COC(CO)CO)c(=O)[nH]1	Oka BVDU-resistant	cytopathic effect	HEL	5.8 µM
NC1=NC2C(C=CN2CC(CO)CCO)C(=O)N1	OKA (TK+)	plaque count	HEL	0.0095 µM
O=c1[nH]c(=O)n([C@@H]2O[C@H](CO)[C@@H](O)[C@@H]2O)cc1/C=C/Cl	Kawaguchi acyclovir-resistant mutant A7	plaque count		0.000413 µg/mL
Nc1ncc2ncn([C@H]3CCC[C@H]3CO)c2n1	OKA (TK+)	plaque count	HEL	>20 µg/mL
Cc1c(Br)cc(Br)c2ncc(CSCc3ccc(F)cc3)n12	YS/R (TK-)	plaque count	HEL	4.8 µg/mL
CCCc1ccc(-c2cc3cn(C4CC[C@@H](CO)O4)c(=O)nc3o2)cc1	OKA (TK+)	plaque count	HEL	>50 µM
Nc1nc2c(ncn2CCC(O)CO)c(=O)[nH]1	9/84 + PER + ULF + BIR + Y	cytopathic effect / ELISA	HEL	44.5 µM
Cc1cccn2c(C3OCCO3)cnc12	YS/R		HEL	>1000 µM
CC1(C)[C@@H](CO)CC[C@@]1(C)Cn1cnc2c(Cl)ncnc21	07/1 (TK-)	cytopathic effect	HEL	>50 µg/mL
O=c1[nH]c(=O)n([C@H]2C[C@H](O)[C@@H](CO)O2)cc1-c1ccc(Br)s1	13 isolates	plaque count	HEL	0.2 µM
Nc1nc2c(ncn2CCC(CO)CO)c(=O)[nH]1	Clinical isolate VZV-12	cytopathic effect	HEL	4.27 µM
CCCCCCCCc1cc2cn([C@@H]3O[C@H](CO)[C@@H](O)[C@@H]3O)c(=O)nc2o1		plaque count	HEL	3.6 µM
Cc1ccn2c(C(SCCc3ccccc3)SCCc3ccccc3)cnc2c1	Strain 07/1		HEL	>1000 µM
Cc1c(Br)cc(Br)c2ncc(CSC(C)c3cccs3)n12	OKA (TK+)	plaque count	HEL	>2 µg/mL
O=C(O)P(=O)(O)O	9/84	cytopathic effect / ELISA	HEL	147 µM
CC1(C)[C@@H](CO)CC[C@@]1(C)Cn1nnc2c(N)ncnc21	07/1 (TK-)	cytopathic effect	HEL	>50 µg/mL
Cc1cn([C@@H]2O[C@H](CO)[C@@H](O)[C@@H]2O)c(=O)[nH]c1=O	Kawaguchi (BrdU-resistant)	plaque count		>10 µg/mL
O=C(O)P(=O)(O)O	OKA (TK+)	plaque count	HEL	67 µM
CC1(C)[C@H](CCO)C[C@@H]1n1nnc2c(=O)[nH]cnc21	07/1 (TK-)	plaque count		>50 µg/mL
OC[C@H]1O[C@@H](c2cc(C(O)C(I)I)c(F)cc2F)C[C@@H]1O	YS (TK+)	plaque count	HEL	85 µg/mL
COc1ccc(CSCc2cnc3c(Br)cc(Br)c(C)n23)cc1	YS (TK+)	plaque count	HEL	>20 µg/mL
CC1(C)[C@@H](CO)CC[C@@]1(C)Cn1cc(I)c(=O)[nH]c1=O	YS/R (TK-)	cytopathic effect	HEL	>50 µg/mL
COC(=O)[C@H](C)NP(=O)(OC[C@H]1O[C@@H](n2cc(/C=C/Br)c(=O)[nH]c2=O)C[C@@H]1O)Oc1ccccc1	OKA	cytopathic effect	HEL	0.05 µM
O=c1[nH]c(=O)n([C@H]2C[C@H](O)[C@@H](CO)O2)cc1/C=C/Br	9/84-C	cytopathic effect / ELISA	HEL	>100 µM
Nc1nc(N)c2ncn(C[C@H]3CCC[C@H]3CO)c2n1	YS/R (TK-)	plaque count	HEL	>50 µg/mL
O=c1[nH]c(=O)n([C@H]2C[C@H](O)[C@@H](CO)O2)cc1/C=C/Br	OKA	cytopathic effect	HEL	0.003 µM
CC(NC(=S)Nc1ccc(NC(=O)c2ccccc2F)cc1)c1ccc(F)cc1	JAB1233	ELISA	HFF	0.44 µg/mL
O=C(NCc1ccc(Cl)cc1)c1c[nH]c2ccc(C#CCO)cc2c1=O	KLE	plaque count		0.2 µM
Cc1ccn2c(C3OCCO3)cnc2c1	YS/R		HEL	>1000 µM
O=c1[nH]c(=O)n([C@@H]2O[C@H](CO)[C@@H](O)[C@@H]2O)cc1/C=C/Br	OKA (WILD TYPE)	cytopathic effect	HEL	0.0002 µM
Cn1cc(C(=O)NCc2ccc(Cl)cc2)c(=O)c2cc(CN3CCOCC3)ccc21	DY varicella isolate	plaque count	HFF	0.8 µM
CCc1cn([C@@H]2O[C@H](CO)[C@@H](O)[C@@H]2O)c(=S)nc1N	HOSEN (TK+)	plaque count	MRC-5	>264.9 µM
CC1(C)[C@@H](CO)CC[C@@]1(C)Cn1cnc2c(N)ncnc21	OKA	cytopathic effect	HEL	>50 µg/mL
Nc1nc2c(ncn2COCCO)c(=O)[nH]1	YS/R (TK-)	plaque count		2.5 µg/mL
OC[C@H]1O[C@@H](c2cc(C(O)CI)c(F)cc2F)C[C@@H]1O	OKA (TK+)	plaque count	HEL	100 µg/mL
Cc1cn(CCCC(O)CF)c(=O)[nH]c1=O	07-01/TK-	cytopathic effect	HEL	>50 µg/mL
Nc1nc2c(ncn2CCCCO)c(=O)[nH]1	9/84 + PER + ULF + BIR + Y	cytopathic effect / ELISA	HEL	>100 µM
Cc1c(Br)cc(Br)c2ncc(CSCCc3ccccc3)n12	YS (TK+)	plaque count	HEL	3.3 µg/mL
CC1(C)[C@H](CCO)C[C@@H]1n1cnc2c(N)ncnc21	OKA (TK+)	plaque count		20 µg/mL
Nc1nc2c(ncn2COC(CO)CO)c(=O)[nH]1	9/84-A	cytopathic effect / ELISA	HEL	43 µM
Nc1ncnc2c1ncn2CCCC(O)CF	OKA	cytopathic effect	HEL	>50 µg/mL
O=C(O)P(=O)(O)O	Oka PFA-resistant/B	cytopathic effect	HEL	274 µM
Nc1nc(=O)n([C@H]2C[C@H](O)[C@@H](CO)O2)cc1/C=C/Cl	YS (TK+)	plaque count	HEL	0.054 µM
O=c1[nH]c(=O)n([C@@H]2O[C@H](CO)[C@@H](O)[C@@H]2O)cc1/C=C/Br	YS-W3 G19 H3	plaque count	HEL	0.0006 µg/mL
O=c1[nH]c(=S)n([C@@H]2O[C@H](CO)[C@@H](O)[C@@H]2O)cc1/C=C/c1ccccc1	HOSEN (TK+)	plaque count	MRC-5	8.5 µM
Cc1c(Br)cc(Br)c2ncc(CSCc3ccc(Cl)cc3Cl)n12	YS (TK+)	plaque count	HEL	>20 µg/mL
Cc1cn([C@@H]2O[C@H](CO)[C@@H](O)[C@@H]2O)c(=S)nc1N	HOSEN (TK+)	plaque count	MRC-5	162.3 µM
CCCCCCc1ccc(-c2cc3cn(C4CC[C@@H](CO)O4)c(=O)nc3o2)cc1	YS (TK+)	plaque count	HEL	5 µM

8 of the rows above, restated:

| SMILES | strain | read by | cell line | value |
|---|---|---|---|---|
| CC1(C)[C@@H](CO)CC[C@@]1(C)Cn1nnc2c(N)ncnc21 | 07/1 (TK-) | cytopathic effect | HEL | >50 µg/mL |
| Nc1nc2c(ncn2COC(CO)CO)c(=O)[nH]1 | Oka BVDU-resistant | cytopathic effect | HEL | 5.8 µM |
| CC(NC(=S)Nc1ccc(NC(=O)c2ccccc2F)cc1)c1ccc(F)cc1 | JAB1233 | ELISA | HFF | 0.44 µg/mL |
| Cc1c(Br)cc(Br)c2ncc(CSCCc3ccccc3)n12 | YS (TK+) | plaque count | HEL | 3.3 µg/mL |
| O=c1[nH]c(=O)n([C@H]2C[C@H](O)[C@@H](CO)O2)cc1I | 7 | plaque count | HEL | 0.39 µg/mL |
| CCc1cn([C@@H]2O[C@H](CO)[C@@H](O)[C@@H]2O)c(=S)nc1N | HOSEN (TK+) | plaque count | MRC-5 | >264.9 µM |
| Nc1ncnc2c1ncn2CCCC(O)CF | OKA | cytopathic effect | HEL | >50 µg/mL |
| Cn1cc(C(=O)NCc2ccc(Cl)cc2)c(=O)c2cc(CN3CCOCC3)ccc21 | DY varicella isolate | plaque count | HFF | 0.8 µM |